Sequences of proteins named here, by UniProt entry; tags and fusion partners are left off. Residues count along the entry.
UniProt O68183, 1-301: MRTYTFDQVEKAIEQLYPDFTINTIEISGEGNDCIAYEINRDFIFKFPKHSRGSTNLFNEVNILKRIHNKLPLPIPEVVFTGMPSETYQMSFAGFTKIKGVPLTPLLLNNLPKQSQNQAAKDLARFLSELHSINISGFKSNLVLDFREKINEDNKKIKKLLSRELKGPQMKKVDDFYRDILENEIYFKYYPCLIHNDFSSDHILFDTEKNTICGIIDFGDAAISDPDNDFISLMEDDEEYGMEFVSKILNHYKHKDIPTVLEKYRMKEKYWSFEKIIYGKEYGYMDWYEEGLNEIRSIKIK

According to article PMC12678819, “Targeting bacterial kinases as a strategy to counteract antibiotic resistance” (2025):

What was measured:
APH(2”)-IVa [1] = molecular target: T1, APH(2”)-IVa (Enterococcus casseliflavus, UniProt O68183); test: Thermal shift assay; conditions: 500 µM compound
[2] = test system: Pseudomonas aeruginosa C0214; test: Bacterial growth / checkerboard assay with kanamycin A
APH(2”)-IVa [3] = molecular target: T1, APH(2”)-IVa; test: Pyruvate Kinase-Lactate Dehydrogenase-coupled enzyme assay
P. aeruginosa ATCC 27853 = test: Cellular uptake assay; conditions: single replicate
E. coli ΔtolC strain = test: Cellular uptake assay; conditions: single replicate
E. coli ATCC 25922 = test: Cellular uptake assay; conditions: single replicate
K. pneumoniae ATCC 43816 = test: Cellular uptake assay; conditions: single replicate

With OCCCn1cc(-c2c(Cl)cnc3[nH]ccc23)nn1 the “ΔTm (°C) at 500 µM” value (APH(2”)-IVa [1]) was 1.20 °C, the OD600nm ([2]; inhibitor 125 µM, KanaA 0 µg.mL-1) was 0.3176 and the OD600nm ([2]; inhibitor 125 µM, KanaA 8 µg.mL-1) was 0.2851. It also gave an OD600nm ([2]; inhibitor 125 µM, KanaA 16 µg.mL-1) of 0.2911, an OD600nm ([2]; inhibitor 125 µM, KanaA 32 µg.mL-1) of 0.2169 and an OD600nm ([2]; inhibitor 125 µM, KanaA 64 µg.mL-1) of 0.0129. For the same molecule, the OD600nm ([2]; inhibitor 125 µM, KanaA 128 µg.mL-1) was -0.00055, the OD600nm ([2]; inhibitor 125 µM, KanaA 256 µg.mL-1) was -0.0006 and the OD600nm ([2]; inhibitor 125 µM, KanaA 512 µg.mL-1) was -0.00045. For the same molecule, the OD600nm ([2]; inhibitor 125 µM, KanaA 1024 µg.mL-1) was -0.00035, the OD600nm ([2]; inhibitor 125 µM, KanaA 2048 µg.mL-1) was 0.00075 and the OD600nm ([2]; inhibitor 125 µM, KanaA 4096 µg.mL-1) was 0.0067. It also gave an OD600nm ([2]; inhibitor 250 µM, KanaA 0 µg.mL-1) of 0.3249, an OD600nm ([2]; inhibitor 250 µM, KanaA 8 µg.mL-1) of 0.2882 and an OD600nm ([2]; inhibitor 250 µM, KanaA 16 µg.mL-1) of 0.2992. The OD600nm ([2]; inhibitor 250 µM, KanaA 32 µg.mL-1) was 0.2261, the OD600nm ([2]; inhibitor 250 µM, KanaA 64 µg.mL-1) was 0.0142 and the OD600nm ([2]; inhibitor 250 µM, KanaA 128 µg.mL-1) was -0.0005. The OD600nm ([2]; inhibitor 250 µM, KanaA 256 µg.mL-1) was -0.0014, the OD600nm ([2]; inhibitor 250 µM, KanaA 512 µg.mL-1) was -0.0009 and the OD600nm ([2]; inhibitor 250 µM, KanaA 1024 µg.mL-1) was -0.0007. It also gave an OD600nm ([2]; inhibitor 250 µM, KanaA 2048 µg.mL-1) of -0.0002, an OD600nm ([2]; inhibitor 250 µM, KanaA 4096 µg.mL-1) of 0.0043 and an OD600nm ([2]; inhibitor 500 µM, KanaA 0 µg.mL-1) of 0.3268. The OD600nm ([2]; inhibitor 500 µM, KanaA 8 µg.mL-1) was 0.2940, the OD600nm ([2]; inhibitor 500 µM, KanaA 16 µg.mL-1) was 0.2905 and the OD600nm ([2]; inhibitor 500 µM, KanaA 32 µg.mL-1) was 0.2029. The OD600nm ([2]; inhibitor 500 µM, KanaA 64 µg.mL-1) was -0.00095, the OD600nm ([2]; inhibitor 500 µM, KanaA 128 µg.mL-1) was -0.0011 and the OD600nm ([2]; inhibitor 500 µM, KanaA 256 µg.mL-1) was -0.0012. It also gave an OD600nm ([2]; inhibitor 500 µM, KanaA 512 µg.mL-1) of -0.0016, an OD600nm ([2]; inhibitor 500 µM, KanaA 1024 µg.mL-1) of -0.0014 and an OD600nm ([2]; inhibitor 500 µM, KanaA 2048 µg.mL-1) of -0.00065. The OD600nm ([2]; inhibitor 500 µM, KanaA 4096 µg.mL-1) was 0.0022, the “Inhibition (%) at 10 µM” value (APH(2”)-IVa [3]; 10 µM compound) was 88% and the Ki (APH(2”)-IVa [3]; 25°C, competitive vs MgATP, 100 µM kanamycin A) was 0.458 µM. The “concentration in cell lysate” value (P. aeruginosa ATCC 27853) was 1.4 ng/mL and 1.24 ng/mL, the “concentration in cell lysate” value (E. coli ΔtolC strain) was 0.581 ng/mL and 1.48 ng/mL and the concentration in periplasm (E. coli ΔtolC strain) was 3.09 ng/mL and 1.78 ng/mL and 1.06 ng/mL. The “concentration in cell lysate” value (E. coli ATCC 25922) was 0.711 ng/mL and 1.14 ng/mL and 1.54 ng/mL, the concentration in cytoplasm (E. coli ATCC 25922) was 0.701 ng/mL and 1.65 ng/mL and 0.652 ng/mL and the “concentration in cell lysate” value (K. pneumoniae ATCC 43816) was 9.73 ng/mL.

“And” between values parts separate entries of the source, which are not always exact repeats. Equal entries are not always repeated.
